Experimental findings from article PMC5577263 (2017) are described below.

Usually koff stands for the first-order rate constant of dissociation.

Several values for one entry are separate records, joined by “and”; a condition that tells them apart may be missing. Identical values can stand only once.

This test addresses recombinant mouse α-synuclein amyloid fibrils (mouse, UniProt O55042 1-140).

B1: recombinant full-length mouse PrP MoPrP(23-231) (natural protein)
chain: not shown
Regarding B1, the koff is 0.0041 s⁻¹ and 0.00047 s⁻¹.
